{"source": "patent US20130316951A1", "data": [{"biological_target": "T1, platelet glycoprotein (GP) IIb/IIIa on platelets of mouse platelet rich plasma (mouse), Q9QUM0", "T1 chain 1": "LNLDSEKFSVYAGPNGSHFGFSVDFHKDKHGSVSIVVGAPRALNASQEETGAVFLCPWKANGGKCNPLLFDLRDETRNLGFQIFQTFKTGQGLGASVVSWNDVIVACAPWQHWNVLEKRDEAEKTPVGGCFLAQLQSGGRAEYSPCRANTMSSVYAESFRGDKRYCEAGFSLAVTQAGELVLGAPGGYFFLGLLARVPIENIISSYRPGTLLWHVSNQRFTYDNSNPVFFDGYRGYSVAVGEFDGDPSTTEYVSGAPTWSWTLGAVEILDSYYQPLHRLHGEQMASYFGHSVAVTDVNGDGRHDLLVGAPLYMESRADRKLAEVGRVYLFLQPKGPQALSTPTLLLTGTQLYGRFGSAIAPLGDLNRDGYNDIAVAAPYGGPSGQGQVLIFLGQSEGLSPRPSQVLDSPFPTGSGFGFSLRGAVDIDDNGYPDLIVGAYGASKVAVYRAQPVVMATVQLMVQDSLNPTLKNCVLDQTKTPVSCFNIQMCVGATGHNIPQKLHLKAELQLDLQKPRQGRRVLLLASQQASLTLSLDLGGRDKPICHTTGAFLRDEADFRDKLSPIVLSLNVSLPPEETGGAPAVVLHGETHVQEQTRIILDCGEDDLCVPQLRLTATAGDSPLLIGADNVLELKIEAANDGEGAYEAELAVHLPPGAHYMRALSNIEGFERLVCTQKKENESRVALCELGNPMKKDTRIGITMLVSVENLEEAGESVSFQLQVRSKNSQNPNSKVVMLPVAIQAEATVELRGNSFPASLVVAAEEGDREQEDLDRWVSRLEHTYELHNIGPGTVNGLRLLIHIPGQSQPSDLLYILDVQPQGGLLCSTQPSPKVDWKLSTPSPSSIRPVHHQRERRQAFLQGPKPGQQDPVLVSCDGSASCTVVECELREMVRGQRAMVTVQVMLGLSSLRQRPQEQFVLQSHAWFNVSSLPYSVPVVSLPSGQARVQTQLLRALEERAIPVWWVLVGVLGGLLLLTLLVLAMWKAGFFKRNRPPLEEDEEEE", "T1 chain 2": "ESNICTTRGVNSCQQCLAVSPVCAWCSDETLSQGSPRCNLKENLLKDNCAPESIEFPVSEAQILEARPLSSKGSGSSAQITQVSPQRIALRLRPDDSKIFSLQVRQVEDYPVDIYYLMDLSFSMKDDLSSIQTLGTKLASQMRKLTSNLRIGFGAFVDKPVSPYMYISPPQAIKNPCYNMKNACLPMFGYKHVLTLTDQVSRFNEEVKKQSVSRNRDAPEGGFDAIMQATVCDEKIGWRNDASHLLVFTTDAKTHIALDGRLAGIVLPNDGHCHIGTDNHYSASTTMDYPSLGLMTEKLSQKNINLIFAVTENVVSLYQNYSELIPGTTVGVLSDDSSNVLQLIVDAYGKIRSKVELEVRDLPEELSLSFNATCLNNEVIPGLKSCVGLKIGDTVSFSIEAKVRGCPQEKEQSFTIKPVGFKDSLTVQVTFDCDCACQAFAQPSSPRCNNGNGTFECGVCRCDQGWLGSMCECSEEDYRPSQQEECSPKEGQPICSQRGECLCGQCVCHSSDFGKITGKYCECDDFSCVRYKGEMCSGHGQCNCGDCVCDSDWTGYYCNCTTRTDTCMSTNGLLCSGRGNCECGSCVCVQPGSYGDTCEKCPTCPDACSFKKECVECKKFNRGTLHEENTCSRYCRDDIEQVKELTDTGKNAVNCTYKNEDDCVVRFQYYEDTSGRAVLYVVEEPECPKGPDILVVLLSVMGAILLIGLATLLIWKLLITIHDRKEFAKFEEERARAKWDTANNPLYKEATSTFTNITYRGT", "assay": "cell-based or functional assay", "units": {"IC50 of inhibition of ADP-induced platelet aggregation, mouse PRP, aggregometer": "nM"}, "values": [{"binder": "saxatilin derivative LS2 (modifications not checked) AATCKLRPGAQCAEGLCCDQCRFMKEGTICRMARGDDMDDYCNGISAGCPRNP", "IC50 of inhibition of ADP-induced platelet aggregation, mouse PRP, aggregometer": 1010}, {"binder": "saxatilin derivative XL1 (modifications not checked) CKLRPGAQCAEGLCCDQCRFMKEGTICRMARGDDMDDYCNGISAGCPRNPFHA", "IC50 of inhibition of ADP-induced platelet aggregation, mouse PRP, aggregometer": 1010}, {"binder": "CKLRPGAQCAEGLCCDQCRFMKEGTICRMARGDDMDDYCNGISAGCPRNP (modifications not checked)", "note": "[saxatilin derivative XL3]", "IC50 of inhibition of ADP-induced platelet aggregation, mouse PRP, aggregometer": 1060}, {"binder": "saxatilin derivative LS3 (modifications not checked) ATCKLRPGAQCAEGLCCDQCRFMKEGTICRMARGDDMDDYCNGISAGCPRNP", "IC50 of inhibition of ADP-induced platelet aggregation, mouse PRP, aggregometer": 1000}]}]}
